Source: PubChem BioAssay AID1224833 (University of Georgia, 2016)
Assay: 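Human genes whose knock-down alters rotavirus replication in monkey cells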 (primary screen). Cell system: monkey MA104 kidney cells. Knock-down reagent: siRNA pool against human genes, 50 nM. Time to read-out: 48 h knock-down before infection; read 24 h after infection. Treatment: infection with rotavirus strain RV3 two days after transfection; infectious dose for this stage not given. Detection: 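Rotavirus antigen per well by fluorescent immunoassay, normalised to non-targeting control wells on each plate and given as a standard z-score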. Scale: z-score vs non-targeting control: higher = more rotavirus replication than with non-targeting control. Active means: In these data the active calls have z-score vs non-targeting control at about -1 or lower, or at about 1 or higher. Calls: active = z-score beyond 1 either way; inactive = z-score within 1 of zero.
The deposit covers about 12,000 reagents; shown is a random part of them. Over the whole deposit, about 5,600 (46%) were called active. 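Active calls cover z-scores past 1 in both directions, so they include lowered as well as raised rotavirus replication.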

LSM4 | z-score vs non-targeting control = 0.975; activity call = inactive
CEP350 | z-score vs non-targeting control = 1.68; activity call = active
EP300 | z-score vs non-targeting control = -3.18; activity call = active
KRTAP5-8 | z-score vs non-targeting control = 1.01; activity call = active
SIVA1 | z-score vs non-targeting control = 0.646; activity call = inactive
OR9Q2 | z-score vs non-targeting control = -2.59; activity call = active
DVL1 | z-score vs non-targeting control = -0.649; activity call = inactive
RAG2 | z-score vs non-targeting control = -0.523; activity call = inactive
CDX2 | z-score vs non-targeting control = 1.79; activity call = active
TMPRSS11D | z-score vs non-targeting control = 1.48; activity call = active
COA3 | z-score vs non-targeting control = 1.77; activity call = active
BBX | z-score vs non-targeting control = 0.105; activity call = inactive
PCF11 | z-score vs non-targeting control = -0.988; activity call = inactive
HBS1L | z-score vs non-targeting control = -0.833; activity call = inactive
MICU1 | z-score vs non-targeting control = -0.442; activity call = inactive

Part of the list above, reformatted.
{"target gene": "RAG2", "z-score vs non-targeting control": -0.523, "activity call": "inactive"}
{"target gene": "CDX2", "z-score vs non-targeting control": 1.79, "activity call": "active"}
{"target gene": "TMPRSS11D", "z-score vs non-targeting control": 1.48, "activity call": "active"}

Next records:
FAM216A | z-score vs non-targeting control = -1.13; activity call = active
DEFB105B | z-score vs non-targeting control = 1.12; activity call = active
ENOX1 | z-score vs non-targeting control = 0.517; activity call = inactive
CREB3L4 | z-score vs non-targeting control = 1.38; activity call = active
RBM5 | z-score vs non-targeting control = -0.388; activity call = inactive
XPO5 | z-score vs non-targeting control = -1.22; activity call = active
PITX3 | z-score vs non-targeting control = 1.64; activity call = active
EMG1 | z-score vs non-targeting control = -2.23; activity call = active
NECTIN3 | z-score vs non-targeting control = 0.59; activity call = inactive
FLII | z-score vs non-targeting control = -1.14; activity call = active
CCDC18 | z-score vs non-targeting control = 0.491; activity call = inactive
B3GNT3 | z-score vs non-targeting control = -1.5; activity call = active
CFAP119 | z-score vs non-targeting control = 1.85; activity call = active
ZNF45 | z-score vs non-targeting control = -3.45; activity call = active
ABRAXAS1 | z-score vs non-targeting control = -1.23; activity call = active
PFN1 | z-score vs non-targeting control = -0.155; activity call = inactive
TSKU | z-score vs non-targeting control = -0.602; activity call = inactive
SNX22 | z-score vs non-targeting control = -0.168; activity call = inactive
AQP12A | z-score vs non-targeting control = -0.138; activity call = inactive
PABPC4 | z-score vs non-targeting control = -1.01; activity call = active
TNFRSF6B | z-score vs non-targeting control = -1.19; activity call = active
SMAD7 | z-score vs non-targeting control = -1.64; activity call = active
CDH23 | z-score vs non-targeting control = -2.72; activity call = active
BLOC1S5 | z-score vs non-targeting control = -0.508; activity call = inactive
HYI | z-score vs non-targeting control = -1.09; activity call = active
ATP5MC1 | z-score vs non-targeting control = -0.616; activity call = inactive
TMEM176B | z-score vs non-targeting control = -2.99; activity call = active
SPRY1 | z-score vs non-targeting control = -0.237; activity call = inactive
RAB29 | z-score vs non-targeting control = -1.23; activity call = active
LINC02915 | z-score vs non-targeting control = -0.572; activity call = inactive
SPCS2 | z-score vs non-targeting control = -1.83; activity call = active
VSIG8 | z-score vs non-targeting control = -2.01; activity call = active
